Reference: patent publication US20240181044A1

molecular target: RBD (SARS-COV-2) (UniProt P0DTC2); assay: SPR

Compared with CC12.3, CC12.1 is 2.1-fold higher in Kd: 0.0096 µM for the first, 0.02 µM for the second.

CV30 and EY6A are within 1.5-fold of each other in Kd: 0.01 µM for the first, 0.007 µM for the second.

CB6 was tested, and the Kd was 0.039 µM.
